Measured values from several laboratories, pooled; numbers as filed in NIAID ChemDB.

Common to all: tests on isolated targets; species: HIV-1; target: Reverse transcriptase

a–b is a range or a potency band.

structure | method | endpoint | strain or isolate | mutations | result
CCN1c2ncc(CCOc3ccc4cc(C(=O)NN)ccc4c3)cc2C(=O)N(C)c2cccnc21 | nucleotide incorporation / radiometric | IC50 | - | RT-Y188L | >1 µM
CNS(=O)(=O)c1ccc(NC(=O)CSc2nnc(C(F)F)n2-c2ccc(C)c3c2CCCC3)c(Cl)c1 | nucleotide incorporation / radiometric | IC50 | - | RT-Y181C | <0.05 µM
O=[N+]([O-])c1ccc2c(c1)CN(c1nn3c(C(F)F)nnc3c3ccccc13)CC2 | RT activity / fluorescence | IC50 | 98US_MSC5016 | - | 7.02 µM
Cc1cc(S(N)(=O)=O)ccc1NC(=O)CSc1nnc(Br)n1-c1ccc(C)c2c1CCCC2 | nucleotide incorporation / radiometric | IC50 | - | RT-Y188L | 0.05–0.1 µM
CCN1c2ncc(CCOc3ccc(C(=O)O)c4c3CCCC4)cc2C(=O)N(C)c2ccc(C)nc21 | nucleotide incorporation / radiometric | IC50 | WT | - | <0.1 µM
CCN1c2ncc(CCOc3cccc4c3ccc[n+]4[O-])cc2C(=O)N(C)c2ccc(Cl)nc21 | nucleotide incorporation / radiometric | IC50 | - | RT-K103N V108I | 0.064 µM
O=C(CSc1nnc(Br)n1-c1ccc(C2CCC2)c2ccccc12)Nc1ccc(C(=O)O)cc1Cl | nucleotide incorporation / radiometric | IC50 | - | - | <0.05 µM
CCN1c2ncc(CCOc3ccc(-c4ccc(Cl)c(C(=O)O)c4)cc3C)cc2C(=O)N(C)c2cccnc21 | nucleotide incorporation / radiometric | IC50 | IIIB | - | <0.05 µM
CCc1ccc(-n2c(CF)nnc2SCC(=O)Nc2ccc(C(=O)O)cc2Cl)c2ccccc12 | nucleotide incorporation / radiometric | IC50 | - | - | <0.05 µM
CCc1cc(NCc2nc3c(C)ccc(C)c3o2)c(=O)[nH]c1C | nucleotide incorporation | IC50 | - | RT-Y181I | >282 µM
Cc1cc(S(N)(=O)=O)ccc1NC(=O)CSc1nnc(Br)n1-c1ccc(C2CC2)c2ccccc12 | nucleotide incorporation / radiometric | IC50 | - | RT-Y181C | <0.05 µM
CCN1c2ncc(CCOc3ccc(C(=O)NNC)cc3C)cc2C(=O)N(C)c2cccnc21 | nucleotide incorporation / radiometric | IC50 | IIIB | RT-K103N Y181C | <0.05 µM
O=C(CSc1nnc(C(F)F)n1-c1ccc(C2CC2)c2ccccc12)Nc1ccc(C(=O)O)cc1Cl | nucleotide incorporation / radiometric | IC50 | - | RT-Y188L | >0.1 µM
Cc1nnc(SCC(=O)Nc2ccc(-c3ccc(OCC(=O)O)cc3)cc2Cl)n1-c1ccc(C(C)(C)C)cc1Cl | PicoGreen / fluorescence | IC50 | - | RT-K103 Y181C | <1 µM
CCN1c2ncc(CCOc3ccc(C(=O)NCC(CC)(CC)C(=O)O)cc3C)cc2C(=O)N(C)c2cccnc21 | nucleotide incorporation / radiometric | IC50 | IIIB | - | <0.05 µM
Cc1ccc2c(C)ccc(-n3c(Br)nnc3SCC(=O)Nc3ccc(S(N)(=O)=O)cc3Br)c2c1 | nucleotide incorporation / radiometric | IC50 | - | - | <0.05 µM
CC(C)(C)c1ccc(-n2nnnc2SCC(=O)Nc2ccc(-c3ccc(OCCN4CC[C@H](O)C4)cc3)cc2Cl)c(Cl)c1 | PicoGreen / fluorescence | IC50 | WT | - | <1 µM
CCOC(=O)[C@H](Cc1ccc(O)cc1)NC(=O)c1ccc(NC(=O)CSc2nnc(Br)n2-c2ccc(C3CC3)c3ccccc23)c(Cl)c1 | nucleotide incorporation / radiometric | IC50 | - | RT-Y181C | <0.05 µM
CCN1c2ncc(CCOc3ccc(C(=O)Nc4ccc(CC(=O)O)cc4)cc3C)cc2C(=O)Nc2c(C)ccnc21 | nucleotide incorporation / radiometric | IC50 | IIIB | - | <0.05 µM
CC(C)(C)c1ccc(-n2nnnc2SCC(=O)Nc2ccc(-c3ccc(OCCN4CCC(C(=O)O)CC4)cc3)cc2Cl)c(Cl)c1 | PicoGreen / fluorescence | IC50 | - | RT-K103 Y181C | <1 µM
CCc1ccc(-n2c(Br)nnc2SCC(=O)Nc2ccc(C(=O)O)cc2C)c2ccccc12 | nucleotide incorporation / radiometric | IC50 | - | RT-Y188L | >0.1 µM
CCN1c2ncc(CCOc3ccc(N(CC(=O)O)C(C)=O)cc3C)cc2C(=O)N(C)c2cccnc21 | nucleotide incorporation / radiometric | IC50 | IIIB | - | <0.05 µM
CC(C)(C)c1ccc(-n2nnnc2SCC(=O)Nc2ccc(NC(=O)c3ccccc3)cc2Cl)c(Cl)c1 | PicoGreen / fluorescence | IC50 | - | RT-K103 Y181C | <1 µM
C=C1c2cc(CCOc3ccc(NS(C)(=O)=O)c4ccccc34)cnc2N(CC)c2ncccc2N1C | nucleotide incorporation / radiometric | IC50 | - | RT-K103N Y181C | 0.1–1 µM
CCN1c2ncc(CCOc3ccc(-c4ccc(O)c(C(=O)O)c4)cc3C)cc2C(=O)N(C)c2cccnc21 | nucleotide incorporation / radiometric | IC50 | IIIB | RT-K103N Y181C | 0.05–0.1 µM
CCN1c2ncc(CCOc3ccc(C(=O)O)c4ccccc34)cc2C(=O)N(C)c2ccc(F)nc21 | nucleotide incorporation / radiometric | IC50 | - | RT-K103N Y181C | 0.1–1 µM
CC(C)(C#Cc1ccc(NC(=O)CSc2nnnn2-c2ccc(C3CC3)cc2Cl)c(Cl)c1)NCc1cnc[nH]1 | PicoGreen / fluorescence | IC50 | - | RT-K103 Y181C | <1 µM
CS(=O)(=O)Nc1ccc2c(c1)CN(c1nn3c(C4CC4)nnc3c3ccccc13)CC2 | RT activity / fluorescence | IC90 | KER2008 | - | 1.28 µM
CC(C)(C#Cc1ccc(NC(=O)CSc2nnnn2-c2cc(C(C)(C)C)ccc2Cl)c(Cl)c1)NC(=O)c1cc[n+]([O-])cc1 | PicoGreen / fluorescence | IC50 | WT | - | <1 µM
Cc1cc(C(=O)O)ccc1NC(=O)CSc1nnc(Br)n1-c1ccc(C2CC2)c2ccccc12 | nucleotide incorporation / radiometric | IC50 | - | - | <0.05 µM
COc1ccc(-c2ccc(NC(=O)CSc3nnnn3-c3ccc(C)cc3Cl)c(Cl)c2)cc1 | PicoGreen / fluorescence | IC50 | WT | - | <1 µM
CN(CC(=O)O)C(=O)c1ccc(NC(=O)CSc2nnc(Br)n2-c2ccc(C3CC3)c3ccccc23)c(Cl)c1 | nucleotide incorporation / radiometric | IC50 | - | RT-Y181C | <0.05 µM
CCN1c2ncc(CCOc3ccc(-c4cccnc4C)cc3C)cc2C(=O)N(C)c2cccnc21 | nucleotide incorporation / radiometric | IC50 | IIIB | - | <0.05 µM
O=C(CSc1nnnn1-c1ccc(C(F)(F)F)cc1Cl)Nc1ccc(-c2ccc(OCCn3ccnc3)cc2)cc1Cl | PicoGreen / fluorescence | IC50 | - | RT-K103 Y181C | <1 µM
NS(=O)(=O)c1ccc(NC(=O)CSc2nnc(Br)n2-c2ccc3c4c(cccc24)CC3)c(Cl)c1 | nucleotide incorporation / radiometric | IC50 | - | - | <0.05 µM
COC(=O)CN(C)CCOc1ccc(-c2ccc(NC(=O)CSc3nnnn3-c3ccc(C(C)(C)C)cc3Cl)c(Cl)c2)cc1 | PicoGreen / fluorescence | IC50 | - | RT-K103 Y181C | <1 µM
COc1ccc2cccc(-n3c(Br)nnc3SCC(=O)Nc3ccc(C(=O)O)cc3Cl)c2c1 | nucleotide incorporation / radiometric | IC50 | - | - | <0.05 µM
CC(C)(C#Cc1ccc(NC(=O)CSc2nnnn2-c2ccc(C3CC3)cc2Cl)c(Cl)c1)NCc1nccs1 | PicoGreen / fluorescence | IC50 | WT | - | <1 µM
CCOC(=O)CN(C)C(=O)c1ccc(NC(=O)CSc2nnc(Br)n2-c2ccc(CC)c3ccccc23)c(Cl)c1 | nucleotide incorporation / radiometric | IC50 | - | - | <0.05 µM
Cc1ccc(-n2nnnc2SCC(=O)Nc2ccc(-c3cccc(CC(=O)O)c3)cc2Cl)c(Cl)c1 | PicoGreen / fluorescence | IC50 | - | RT-K103 Y181C | <1 µM
CCc1ccc(-n2c(Br)nnc2SCC(=O)Nc2ccc(C(=O)N[C@H](C(=O)OC)C(C)C)cc2Cl)c2ccccc12 | nucleotide incorporation / radiometric | IC50 | - | RT-Y188L | <0.05 µM
CC(C)(C)c1ccc(-n2nnnc2SCC(=O)Nc2ccc(OCCN3CCOCC3)cc2Cl)c(Cl)c1 | PicoGreen / fluorescence | IC50 | WT | - | <1 µM
NS(=O)(=O)c1ccc(NC(=O)CSc2nnc(Br)n2-c2c(Cl)cc(C3CCC3)c3ccccc23)c(Cl)c1 | nucleotide incorporation / radiometric | IC50 | - | RT-Y181C | <0.05 µM
O=C(O)Cc1ccc(-c2ccc(NC(=O)CSc3nnnn3-c3ccc(C4CC4)cc3Cl)c(Cl)c2)cc1 | PicoGreen / fluorescence | IC50 | - | RT-K103 Y181C | <1 µM
CCN1c2ncc(CCOc3ccc(S(=O)(=O)NCC(=O)O)c4ccccc34)cc2C(=O)N(C)c2cccnc21 | nucleotide incorporation / radiometric | IC50 | - | RT-K103N Y181C | <0.1 µM
CC(C)(C#Cc1ccc(NC(=O)CSc2nnnn2-c2ccc(C(C)(C)C)cc2Cl)c(Cl)c1)OCC(=O)NCc1ccco1 | PicoGreen / fluorescence | IC50 | WT | - | <1 µM
CCc1ccc(-n2c(C)nnc2SCC(=O)Nc2ccc(S(N)(=O)=O)cc2Cl)c2c1CCCC2 | nucleotide incorporation / radiometric | IC50 | - | RT-Y181C | 0.05–0.1 µM
CC(C)(C#Cc1ccc(NC(=O)CSc2nnnn2-c2ccc(CC3CC3)cc2Cl)c(Cl)c1)NC(=O)c1cc[n+]([O-])cc1 | PicoGreen / fluorescence | IC50 | WT | - | <1 µM
CCN1c2ncc(CCOc3ccc(-n4ccnc4)cc3C)cc2C(=O)N(C)c2cccnc21 | nucleotide incorporation / radiometric | IC50 | IIIB | RT-K103N Y181C | <0.05 µM
Cc1ccc(-c2cn[nH]c2OCC(=O)Nc2ccc(-c3ccc(CC(=O)O)cc3)cc2Cl)c(Cl)c1 | PicoGreen / fluorescence | IC50 | WT | - | <1 µM
O=C(CSc1nnc(Br)n1-c1ccc(C2CC2)cc1OC(F)(F)F)Nc1ccc(S(=O)(=O)O)cc1Cl | nucleotide incorporation / radiometric | IC50 | - | - | <0.05 µM
Cc1ccc(C(F)(F)F)c(Cl)c1-n1nnnc1SCC(=O)Nc1ccc(C#CC(C)(C)O)cc1Cl | PicoGreen / fluorescence | IC50 | WT | - | <1 µM
CCc1ccc(-n2c(Br)nnc2SCC(=O)Nc2ccc(C(=O)NCC(=O)OC)cc2Cl)c2ccccc12 | nucleotide incorporation / radiometric | IC50 | - | RT-Y181C | <0.05 µM
O=C(CSc1nnnn1-c1ccc(C2CC2)cc1Cl)Nc1ccc(C#CC2(CN3CCCC3)CC2)cc1Cl | PicoGreen / fluorescence | IC50 | - | RT-K103 Y181C | <1 µM
CCN1c2ncc(CCOc3ccc(C(=O)O)c4c3CCN(S(=O)(=O)N(C)C)C4)cc2C(=O)N(C)c2cccnc21 | nucleotide incorporation / radiometric | IC50 | WT | - | <0.1 µM
CC(C)(C#Cc1ccc(NC(=O)CSc2nnnn2-c2ccc(C3CC3)cc2Cl)c(Cl)c1)NC(=O)c1cc[n+]([O-])cc1 | PicoGreen / fluorescence | IC50 | WT | - | <1 µM
COc1nnc2c3ccccc3c(N3CCc4ccc(N)cc4C3)nn12 | RT activity / fluorescence | IC50 | IIIB | - | 2.71 µM

5 of the rows above, restated:

structure,method,endpoint,strain or isolate,mutations,result
CCOC(=O)[C@H](Cc1ccc(O)cc1)NC(=O)c1ccc(NC(=O)CSc2nnc(Br)n2-c2ccc(C3CC3)c3ccccc23)c(Cl)c1,nucleotide incorporation / radiometric,IC50,-,RT-Y181C,<0.05 µM
CC(C)(C#Cc1ccc(NC(=O)CSc2nnnn2-c2ccc(C3CC3)cc2Cl)c(Cl)c1)NC(=O)c1cc[n+]([O-])cc1,PicoGreen / fluorescence,IC50,WT,-,<1 µM
CCN1c2ncc(CCOc3ccc(-n4ccnc4)cc3C)cc2C(=O)N(C)c2cccnc21,nucleotide incorporation / radiometric,IC50,IIIB,RT-K103N Y181C,<0.05 µM
CC(C)(C)c1ccc(-n2nnnc2SCC(=O)Nc2ccc(OCCN3CCOCC3)cc2Cl)c(Cl)c1,PicoGreen / fluorescence,IC50,WT,-,<1 µM
CCN1c2ncc(CCOc3ccc(-c4ccc(O)c(C(=O)O)c4)cc3C)cc2C(=O)N(C)c2cccnc21,nucleotide incorporation / radiometric,IC50,IIIB,RT-K103N Y181C,0.05–0.1 µM

Lines come from different laboratories, so protocols vary. Blank or dashed fields: not listed here. ICn: concentration for n% inhibition.